Laboratory results as given in PubChem BioAssay AID1053175 (ICCB-Longwood Screening Facility, Harvard Medical School, 2014).
The list shows a part of the results, in another mix than the full data. Some structures show a salt or complex split into parts, the way the source records it. Calls of active or inactive are those of the source.

Test: antibacterial activity against Escherichia coli – OD600, primary screen (AID 1053175)
Conditions: Escherichia coli growth, OD600, 23 h; active compounds read low

Structure (SMILES) | OD600 absorbance
Cc1ccc(OP(=O)(Nc2ccc([N+](=O)[O-])cn2)Oc2ccc(C)cc2)cc1 | inactive: 0.649
Cc1cccc(C)c1OP(C)(N)=O (configuration not stated) | inactive: 0.679
COc1ccccc1OP(C)(=O)Nc1ccc(C)cc1 (configuration not stated) | inactive: 0.666
CC(C)c1ccc(OP(=O)(Nc2ccccn2)Oc2ccccc2F)cc1 (configuration not stated) | inactive: 0.625
Cc1ccc(NP(C)(=O)Oc2ccccc2)c(C)c1 (configuration not stated) | inactive: 0.715
CCOC(=O)c1ccc(NP(C)(=O)Oc2ccccc2)cc1 (configuration not stated) | inactive: 0.667
COc1ccc2c(c1O)-c1c(O)c(OC)cc3c1C(C2)[N+](C)(C)CC3.O=[N+]([O-])c1cc([N+](=O)[O-])c([O-])c([N+](=O)[O-])c1[O-] (configuration not stated) | inactive: 0.684
ClCCSc1nnc(-c2cccnc2)o1 | inactive: 0.691
Cc1cc(C)cc(OP(C)(N)=O)c1 (configuration not stated) | inactive: 0.674
O=C(OC1CN2CCC1CC2)c1cccc2[nH]cnc12 (configuration not stated) | inactive: 0.642
CCN(CC)C(=S)SC(NC=O)C(Cl)(Cl)Cl (configuration not stated) | inactive: 0.737
COc1ccccc1OP(C)(=O)Nc1cc(Cl)ccc1C (configuration not stated) | inactive: 0.661
CC(C)NC(=O)NP(=O)(Oc1ccccc1)Oc1ccccc1 | inactive: 0.672
COc1ccc(OP(C)(=O)Nc2cccc(F)c2)cc1 (configuration not stated) | inactive: 0.691
O=C(OC1CN2CCC1CC2)C12CC3CC(CC(C3)C1)C2 (configuration not stated) | inactive: 0.72
CCN(CC)CCCOC(=O)C(O)(c1ccccc1)c1ccccc1 | inactive: 0.654
Cc1cc(=O)[nH]c(N[N+](=O)[O-])n1 | inactive: 0.655
Cc1c2c(nc3ccccc13)SC(C(Cl)Cl)C2 (configuration not stated) | inactive: 0.682
COc1ccc2nc(NP(=O)(c3ccccc3)c3ccccc3)sc2c1 | inactive: 0.68
COc1cc(I)ccc1[As](=O)(O)O | inactive: 0.654
O=P1(N(CCCl)CCCl)Nc2ccccc2N1 | inactive: 0.655
CCC(CO)(C(=O)OC1CN2CCC1CC2)c1ccccc1 (configuration not stated) | inactive: 0.688
NC(=O)c1cc([N+](=O)[O-])cc([N+](=O)[O-])c1N | inactive: 0.717

Structure (SMILES) | OD600 absorbance
COc1ccccc1OP(C)(=O)Nc1ccc(Br)cc1 (configuration not stated) | inactive: 0.668
COc1ccc(OP(C)(=O)Nc2ccccn2)cc1 (configuration not stated) | inactive: 0.67
COc1ccccc1OP(=O)(Nc1ccc(C)cn1)Oc1ccccc1OC | inactive: 0.696
Cc1ccc(OP(=O)(Nc2nccs2)Oc2ccc(C)cc2)cc1 | inactive: 0.698
Clc1ccc(Cl)c(NC2=NCC(CBr)S2)c1 (configuration not stated) | inactive: 0.695
CN(C)CCOC(=O)C(O)(c1ccccc1)C1CCCC1 (configuration not stated) | inactive: 0.727
CN1CCCC(OC(=O)C(c2ccccc2)c2ccccc2)C1 (configuration not stated) | inactive: 0.698
CC(C)CC(=O)NC(Sc1ccc(Cl)cc1)C(Cl)(Cl)Cl (configuration not stated) | inactive: 0.677
O=[N+]([O-])c1cc([N+](=O)[O-])c(Nc2ccccn2)c([N+](=O)[O-])c1 | inactive: 0.655
Cc1c(NP(C)(=O)Oc2ccc(C(C)C)cc2)c(=O)n(-c2ccccc2)n1C (configuration not stated) | inactive: 0.696
Nc1cc(N)c2nonc2c1[N+](=O)[O-] | inactive: 0.693
Oc1ccccc1CNc1ccccn1 | inactive: 0.662
O=C(NC(Sc1ccncn1)C(Cl)(Cl)Cl)c1ccccc1 (configuration not stated) | inactive: 0.636
CP(=O)(Nc1ccccn1)Oc1ccccc1 (configuration not stated) | inactive: 0.676
COc1ccccc1OP(C)(=O)Nc1ccc(C)cc1C (configuration not stated) | inactive: 0.694
CCc1ccc(OP(C)(=O)O)cc1 | inactive: 0.678
CC(=O)Nc1ccc([As](=O)(O)O)cc1 | inactive: 0.672
CCCC1OP(N)(=O)OCC1CC (configuration not stated) | inactive: 0.723
CCN(CC)CC(C)C(C)OC(=O)C(O)(c1ccccc1)c1ccccc1 (configuration not stated) | inactive: 0.648
O=C1C(O)=C([N+](=O)[O-])C(=O)C(O)=C1[N+](=O)[O-] | inactive: 0.67
Cc1cc(C)cc(OP(C)(=O)Nc2cccc(C(F)(F)F)c2)c1 (configuration not stated) | inactive: 0.651
O=P(Nc1nc2ccc(Cl)cc2s1)(c1ccccc1)c1ccccc1 | inactive: 0.646
CCOP(=O)(Nc1ccccc1)OCC | inactive: 0.713

Structure (SMILES) | OD600 absorbance
Cc1cc(SC(NC(=O)c2ccc(F)cc2)C(Cl)(Cl)Cl)ncn1 (configuration not stated) | inactive: 0.72
Cc1ccc(NP(=O)(Oc2ccccc2F)Oc2ccccc2F)nc1 | inactive: 0.628
COc1ccccc1OP(C)(=O)Nc1ccc(C)c(C)c1 (configuration not stated) | inactive: 0.731
CC(C)=NN=C(N)N[N+](=O)[O-] | inactive: 0.69
CC(C)N1C(=O)CC2(CCN(CCOC(=O)C(O)(c3ccccc3)c3ccccc3)CC2)C1=O | inactive: 0.761
CCN(N=Nc1nonc1N)c1nonc1N | inactive: 0.705
CP(=O)(Nc1ccc(Cl)cc1Cl)Oc1ccccc1 (configuration not stated) | inactive: 0.695
Nc1ccc2c(ccc3cccnc32)n1.O=[N+]([O-])c1cc([N+](=O)[O-])c(O)c([N+](=O)[O-])c1 | inactive: 0.599
O=P1(N(CCCl)CCCl)OCCCS1 (configuration not stated) | inactive: 0.672
O=C(Nc1cc([As](=O)(O)O)ccc1O)c1ccccc1 | inactive: 0.682
CP(=O)(OC12CC3CC(CC(C3)C1)C2)OC12CC3CC(CC(C3)C1)C2 | inactive: 0.679
CC(C)(C)C(=O)NC(Sc1ccncn1)C(Cl)(Cl)Cl (configuration not stated) | inactive: 0.65
O=[N+]([O-])c1ncn(CCn2ncnc2[N+](=O)[O-])n1 | inactive: 0.657
O=[N+]([O-])c1cccc(NC2=NCC(CBr)S2)c1 (configuration not stated) | inactive: 0.675
O=C(O)CNc1ccc([As](=O)(O)O)cc1 | inactive: 0.662
CCN(CC)CC(O)COC(=O)C(O)(c1ccccc1)C1CCCCC1 (configuration not stated) | inactive: 0.682
COc1ccc(C2=NCC(CBr)S2)cc1 (configuration not stated) | inactive: 0.716
COc1ccc(OP(C)(=O)Nc2ccc(Br)cc2)cc1 (configuration not stated) | inactive: 0.684
COc1ccccc1OP(C)(=O)Nc1c(C)n(C)n(-c2ccccc2)c1=O (configuration not stated) | inactive: 0.737
O=[N+]([O-])c1cccc2n[nH]nc12 | inactive: 0.605
CC(=O)N1C2C3N(C(C)=O)C1C1N(C(C)=O)C(C(N1C(C)=O)N3C(C)=O)N2C(C)=O | inactive: 0.723
